Pooled drug test results. Numbers come from NIAID ChemDB, via PubChem.

All rows: host cell toxicity; cell line: HEK 293; endpoint: CC50

Blank or dashed fields: not listed here. Rows are shuffled and stem from different studies. CCn: concentration that lowers growth or viability of the cells by n%.

SMILES,read by,value
Cc1[nH]c2ccccc2c1CC(=O)NC(Cc1ccccc1)C(=O)N(C)c1ccccc1,MTT,>50 µM
O=C(NC(=S)Nc1ccc(Br)cn1)c1ccccc1[N+](=O)[O-],MTT,62.6 µM
CC(/C=C/C=C(\C)CC(=O)O)=C\C=C\C=C(C)\C=C\C(C)=C(/C)C(=O)O,ATP,>26 µM
N=C(N)c1ccc2cc(C#Cc3cccc(OCc4ccccc4)c3)ccc2c1,,1.9 µM
COc1cc(-c2ccccc2)c(OC)c(OC)c1O,sulforhodamine / absorbance,>50 µM
CCCCCCCC(=O)OC1O[C@@H]2OC3(C)CCC4[C@H](C)CCC([C@H]1C)[C@]42OO3,ATP / luminescence,>26 µM
C[N+]1=c2cc(NCCc3ccc(O)cc3)c(O)c3c2=C(C=N3)CC1,resazurin,1.2 µM
CC1CCCC23CC4C(CC12C)C4(C)C3,ATP,>26 µM
CN[C@@H](CC1=CN=c2c(O)c3c(c(O)c21)=NCCS3(=O)=O)C(=O)O.O=C(O)C(F)(F)F,resazurin / fluorescence,>80 µM
O=c1c2cc(O)c(O)cc2oc2cc(O)cc(O)c12,sulforhodamine / absorbance,>50 µM
CN[C@@H](CC1=c2c(O)c3c(c(O)c2N=C1)=NC=CS3(=O)=O)C(=O)O.O=C(O)C(F)(F)F,resazurin / fluorescence,>40 µM
C=C/C(C)=C/C[C@H]1C(=C)CCC2[C@]1(C)CCC[C@]2(C)C(=O)O,,205.6 µg/mL
C[C@H]1C(OC(=O)c2ccccc2)O[C@@H]2OC3(C)CCC4[C@H](C)CCC1[C@]42OO3,ATP / luminescence,>26 µM
CC/C=C\C[C@H]1C(=O)CC[C@@H]1CC(=O)OC,ATP,>26 µM
C[C@H]1[C@H](O)C(=O)CC2[C@]3(C)CC[C@@]4(C)C5CC(C)(C)CC[C@]5(C)CC[C@]4(C)C3CC[C@@]21C,sulforhodamine / absorbance,>50 µM
N=C(N)c1ccc2cc(NC(=O)Nc3ccc(N)cc3)ccc2c1,,>100 µM
CC(C)=CCC[C@@H](C)[C@@H]1CC[C@]2(C)C3=C(CC[C@@]12C)[C@@]1(C)CC[C@H](O)C(C)(C)[C@@H]1CC3,sulforhodamine / absorbance,37.1 µM
CC1(C)CC[C@]2(C(=O)O)CC[C@]3(C)C(=CC[C@@H]4[C@@]5(C)C[C@@H](O)[C@H](O)C(C)(C)[C@@H]5CC[C@]43C)[C@@H]2C1,ATP,>26 µM
O=C(O)C(=O)/C=C(\O)c1cccn1Cc1ccc(F)cc1,,>100 µM
Cn1cc2c3c1C(=O)C(N/C=C/c1ccc(O)cc1)=CC3=[N+](C)CC2,resazurin,2 µM
CC(=O)Oc1ccccc1C(=O)OC1O[C@@H]2OC3(C)CCC4[C@H](C)CCC([C@H]1C)[C@]42OO3,ATP / luminescence,>26 µM
O=C1c2c(O)cc(O)cc2O[C@@H](c2ccc(O)cc2)[C@@H]1c1c(O)cc(O)c2c(=O)cc(-c3ccc(O)c(O)c3)oc12,sulforhodamine / absorbance,>50 µM
CC(CCN(CCC(C)CC(C)(C)C)c1ccc2nc(N)[nH]c2c1)CC(C)(C)C,,21 µM
O=C(/C=C/c1ccccc1)[Se]c1ccccc1,WST,>100 µM
CC[C@H](/C=C/[C@@H](C)[C@H]1CCC2C3CC=C4C[C@@H](O)CC[C@]4(C)[C@@]3(C)CC[C@@]21C)C(C)C,ATP,>26 µM
C/C=C/c1ccc2c(c1)[C@H](C)[C@@H](c1ccc(OC)c(OC)c1)O2,sulforhodamine / absorbance,47.5 µM
CCCCCCCCCC(=O)OC1O[C@@H]2OC3(C)CCC4[C@H](C)CCC([C@H]1C)[C@]42OO3,ATP / luminescence,>26 µM
CC1(C)CC[C@]2(C(=O)O)CC[C@]3(C)C(=CC[C@@H]4[C@@]5(C)C[C@@H](O)[C@H](O)[C@@](C)(CO)[C@@H]5CC[C@]43C)[C@@H]2C1,ATP,>26 µM

The first 2 rows once more:

SMILES | read by | value
Cc1[nH]c2ccccc2c1CC(=O)NC(Cc1ccccc1)C(=O)N(C)c1ccccc1 | MTT | >50 µM
O=C(NC(=S)Nc1ccc(Br)cn1)c1ccccc1[N+](=O)[O-] | MTT | 62.6 µM